This is a selection; strong and weak results do not stand in their true shares. Inconclusive results are not listed. Calls of active or inactive are those of the source. Calls come from the whole dose curve.
Assay: Primary qHTS Assay for Foot and Mouth Disease Virus Antivirals against NCGC Sytravon and CBC Compound Libraries: Renilla Luciferase Signal; note: nearly all actives have a fitted effect of over 55% in size
Conditions: FMDV replicon cells; at 57.5 µM (top of the series) unless noted
In the case of `OCCSCCO`, the activity change, negative = inhibition was inactive: -2.29%. In the case of `BrCCNCCc1ccncc1`, the activity change, negative = inhibition was inactive: 6.12%. For `CCNC(C)Cc1ccc2c(c1)OCO2` (configuration not stated), the activity change, negative = inhibition was inactive: -2.91% [at 129 µM]. For `CCOP(=O)(CC)Oc1ccc([N+](=O)[O-])cc1` (configuration not stated), the activity change, negative = inhibition was inactive: -10.5%. For `Cc1cccc([N+](=O)[O-])c1[N+](=O)[O-]`, the activity change, negative = inhibition was inactive: -5.03% [at 114 µM]. With `CCn1nc(C(=O)NCC2(N3CCCCC3)CCCCC2)c2ccccc2c1=O` the activity change, negative = inhibition was inactive: 7.01%. With `CN(C(=O)Cc1ccccc1)[C@H]1CC[C@@]2(CCCO2)C[C@@H]1N1CCCC1` the activity change, negative = inhibition was inactive: -11.9%. In the case of `ClCCNC1C2CC3CC(C2)CC1C3` (configuration not stated), the activity change, negative = inhibition was inactive: -1.78%. In the case of `O=[N+]([O-])c1cccc([N+](=O)[O-])c1`, the activity change, negative = inhibition was inactive: -11.6% [at 114 µM]. For `CN(C(=O)Cc1ccc(Cl)c(Cl)c1)[C@H]1CC[C@@]2(CCCO2)C[C@@H]1N1CCCC1`, the activity change, negative = inhibition was inactive: -21.2%. In the case of `Cc1ccc(C(=O)NC(Sc2ccccc2)C(Cl)(Cl)Cl)cc1` (configuration not stated), the activity change, negative = inhibition was inactive: 6.07%. With `NC(=O)Nc1ccc([As](=O)(O)O)cc1` the activity change, negative = inhibition was inactive: 29.9%. With `Fc1ccc(NC2=NCC(CI)S2)c(F)c1` (configuration not stated) the activity change, negative = inhibition was inactive: 2.38%. For `BrCC1CN=C(Nc2ccccc2)S1` (configuration not stated), the activity change, negative = inhibition was inactive: 86.8%. For `Cc1ccc(C(=O)NC(Sc2ccc(Cl)cc2)C(Cl)(Cl)Cl)cc1` (configuration not stated), the activity change, negative = inhibition was inactive: -17.2%. For `NNc1ccc([N+](=O)[O-])cc1[N+](=O)[O-]`, the activity change, negative = inhibition was inactive: -3.59%. For `Fc1ccc(CNC2=NCC(CBr)S2)cc1` (configuration not stated), the activity change, negative = inhibition was inactive: -13.3%. For `O=C(NC(Sc1ccccc1)C(Cl)(Cl)Cl)c1ccc(Cl)cc1` (configuration not stated), the activity change, negative = inhibition was inactive: -2.3%. For `O=C(NC(Sc1ccc(Cl)cc1)C(Cl)(Cl)Cl)c1ccccc1` (configuration not stated), the activity change, negative = inhibition was inactive: -21.9%. For `O=C(/C=C/c1ccccc1)NC(Sc1ccc(Cl)cc1)C(Cl)(Cl)Cl` (configuration not stated), the activity change, negative = inhibition was inactive: 10.3%. For `Cc1cccc(C(=O)NC(Sc2ccccc2)C(Cl)(Cl)Cl)c1` (configuration not stated), the activity change, negative = inhibition was inactive: 13.1%. With `Clc1cccc(NC2=NCC(CBr)S2)c1` (configuration not stated) the activity change, negative = inhibition was inactive: 2.98%.
% is set by controls: 0 for no effect and ±100 for the full control effect.
